PubChem BioAssay AID624099, ICCB-Longwood, 2012

Screen: 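Human genes that papillomavirus E2 requires to repress the HPV18 LCR promoter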 (primary screen)
System: human C33A cervical carcinoma cells (HPV-negative) stably expressing BPV1 E2 and an HPV18 LCR luciferase reporter
Reagent: siRNA pool against human genes, 40 nM
Timing: 72 h
Read-out: 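Per-well luciferase luminescence, z-scored on each plate against the plate mean and SD with control wells left out, then averaged across three replicate plates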
Scale: mean z-score and z-score: higher = stronger reporter signal, weaker E2 silencing
Rule for the call: 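Mean z ≥ 2 together with z ≥ 2 in two or more of the three replicates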
Shown is a random part of about 21,000 deposited reagents. In the full data, 497 (2.4%) got an active call. 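Higher z means weaker E2 silencing; only reporter increases were scored, and knock-downs that hurt cell survival may mask genuine repressor factors.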 A number with no mark means an inactive call. The numbers tell different reagents against one gene apart.

| gene | reagent no. | mean z-score | z-score, replicate A | z-score, replicate B | z-score, replicate C |
| --- | --- | --- | --- | --- | --- |
| IBTK | 1 | -0.93 | -1.07 | -0.71 | -1.02 |
| FBXO46 | 1 | 0.19 | -0.1 | 0.37 | 0.31 |
| LOC402463 (retired record) | 1 | -0.76 | -0.73 | -0.92 | -0.62 |
| LOC402463 (retired record) | 2 | -0.18 | -0.2 | -0.27 | -0.06 |
| NDEL1 | 1 | 0.76 | 0.88 | 0.81 | 0.59 |
| HTR7 | 1 | 0.26 | 0.06 | 0.28 | 0.44 |
| THTPA | 1 | 0.99 | 1.08 | 1.27 | 0.63 |
| RPL7A | 1 | -1.94 | -1.94 | -1.89 | -1.98 |
| SIGLEC9 | 1 | -0.83 | -0.65 | -0.71 | -1.13 |
| HAP1 | 1 | -0.21 | -0.07 | -0.34 | -0.23 |
| ADAD1 | 1 | -0.23 | -0.18 | -0.26 | -0.25 |
| FBN3 | 1 | 0 | 0 | -0.01 | 0.01 |
| ME1 | 1 | 0.52 | 0.89 | 0.28 | 0.39 |
| WASH6P | 1 | 2.08 (active) | 2 | 1.83 | 2.4 |
| WASH6P | 2 | -0.1 | -0.25 | 0.21 | -0.26 |
| GJB7 | 1 | -0.73 | -1.08 | -0.66 | -0.46 |
| DCX | 1 | -0.59 | -0.39 | -0.75 | -0.62 |
| FAM225A | 1 | -1.18 | -1.41 | -0.95 | -1.18 |
| BACE1 | 1 | -0.47 | -0.43 | -0.47 | -0.52 |
| MED1 | 1 | -0.58 | -0.55 | -0.48 | -0.69 |
| RTKN | 1 | 0.09 | -0.1 | 0.28 | 0.09 |
| TAOK2 | 1 | 0.81 | 0.61 | 0.82 | 1.01 |
| LRRTM4 | 1 | 1.15 | 1.18 | 0.84 | 1.43 |
| EHD4 | 1 | 0.49 | 0.94 | 0.22 | 0.31 |
| REXO5 | 1 | 0.96 | 1.26 | 0.42 | 1.19 |
| SLC14A1 | 1 | 0.47 | 0.7 | 0.61 | 0.11 |
| NKX2-1 | 1 | 0.1 | 0.37 | -0.06 | -0.01 |
| RNF145 | 1 | 1.21 | 1.75 | 0.81 | 1.07 |
| CDX1 | 1 | -0.33 | -0.71 | -0.4 | 0.12 |
| F2 | 1 | 1.06 | 1.15 | 1.01 | 1.01 |
| LINC00324 | 1 | 0.23 | 0.35 | 0.18 | 0.17 |
| FBXO2 | 1 | -0.22 | -0.06 | -0.27 | -0.33 |
| PAIP2B | 1 | -0.26 | -0.48 | -0.23 | -0.07 |
| DNALI1 | 1 | 0.7 | 0.94 | 0.68 | 0.48 |
| COL11A1 | 1 | -0.04 | 0.1 | -0.06 | -0.15 |
| MID1IP1 | 1 | -0.56 | -0.17 | -0.54 | -0.99 |
| CYB5R2 | 1 | 0.16 | 0.05 | 0.22 | 0.2 |
| GLCCI1 | 1 | 2 (active) | 1.94 | 2.07 | 2.01 |
| GEMIN5 | 1 | 1.11 | 1.04 | 1.08 | 1.2 |

6 entries from above, set out differently:
gene,reagent no.,mean z-score,"z-score, replicate A","z-score, replicate B","z-score, replicate C"
FBXO2,1,-0.22,-0.06,-0.27,-0.33
PAIP2B,1,-0.26,-0.48,-0.23,-0.07
DNALI1,1,0.7,0.94,0.68,0.48
COL11A1,1,-0.04,0.1,-0.06,-0.15
MID1IP1,1,-0.56,-0.17,-0.54,-0.99
CYB5R2,1,0.16,0.05,0.22,0.2
